This is an account of results in paper PMC6624210 (Nature Communications, 2019).

In the experiment the target is MERS-CoV S1 NTD (residues 18-353), wild type (MERS-CoV, EMC strain (NTD sequence …, UniProt K9N5Q8)).

B1: 7D10-H (chimeric 7D10: V segments of mouse mAb 7D10 on the human IgG1 backbone) (antibody, V domains shown)
VH: EVQLVESGAEVVKPGASVKMSCKASGYPFTSYNIHWIKQTPGQGLEWIGAIYPGNGDTSYTQKFKVKATLTSDKSSSTAYMQLSSLTSEDSAVYFCARYGNYPSYAMDYWGQGTSVTVSS
VL: DIVMTQSPASLTVSLGQRATISCRASKSVSASGYNYLHWYQQRPGQPPKLLIYLAFNLESGVPARFNGSGSGTDFTLNIHPVEEEDAATYYCQHSRDLPFTFGSGTKLEIK
Broadly, the koff is the first-order rate constant of dissociation. Read a high koff as a short-lived complex. Usually kon stands for a measure of how fast the partners come together. Low values mean slower complex formation, high ones faster complex formation. B1 showed a koff of 0.00101 s⁻¹ and a kon of 40400 M⁻¹ s⁻¹.
